Consider 1 compound from ChEMBL document CHEMBL4145508 (Eur J Med Chem, 2018).

Series [1] can be described thus: Selectivity index, ratio of CC50 for chicken embryo fibroblasts to EC50 for influenza A virus chicken/china/1220/2012(H5N1).
Series [2] can be described thus: Selectivity index, ratio of CC50 for chicken embryo fibroblasts to EC50 for influenza A virus duck/Guangdong/674/2014(H5N6).

Consider `CCC(CC)O[C@@H]1C=C(C(=O)N[C@@H](C(=O)O)C(C)C)C[C@H](N)[C@H]1NC(C)=O`, for which the Ratio CC50/EC50 in series [1] is above 200; in series [2], above 750.
